# Reference: PMC3496871 (Molecular bioSystems, 2012)
# System: kanamycin A
# Assay: purified protein, by the assay type
# Conditions: other: Eis_Mtb 0.25 μM; 500 μM AcCoA; apparent; pH 7.5; 25.0 °C
substance,measurement,value
Eis_Mtb (Mycobacterium tuberculosis H37Rv),Km,330 ± 40 µM
same,kcat,0.526 s⁻¹
same,kcat/Km,1590 M⁻¹ s⁻¹
